Measured values taken from US20240168030A1, “DIRECT FLUORESCENT GLYCAN LABELING” (BIO-TECHNE CORPORATION, priority 2019, published 2024).

Assay: Selection of labeling enzyme and substrate optimization on released RBD glycans

Substance | Donor input at which stronger signal intensities were observed (labeling by ST6Gal1 or ST3Gal6, 2 hours at 37° C., FIG. 26C) | Signal among sialyltransferases ST6Gal1, ST3Gal3, ST3Gal4 and ST3Gal6 (CMP-Cy5-Sialic acid, FIG. 26A)
cytidine monophosphate activated Cy5-conjugated sialic acid | around 0.4 nmol | 
α-2,6-sialyltransferase 1 |  | stronger signals
